Data as given in PubChem BioAssay AID504761 (Drosophila RNAi Screening Center, 2011).
The screen tested about 22,000 reagents; this is a random part of those that have a named target and a result. In the full data, 116 (0.52%) got an active call. 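Calls depend on retest data that are not deposited; infection was ranked per plate without normalising between plates; the unit of the infection score is not given.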 Raw values vary from plate to plate and are shown uncorrected. Unmarked entries are inactive. A plus sign joins genes that one reagent is predicted to hit. Not given: the amount of reagent, the time to read-out.

- Screen: 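Genome-wide fly cell screen for genes dengue virus requires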 (primary screen)
- Cell system: D.Mel-2 cells from Drosophila
- Reagent: long dsRNA against Drosophila genes
- Challenge: infection with dengue virus type 2; dose and infection time not stated
- Measurement: 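Per well on two replicate plates, imaging gave the percent of cells positive for viral envelope protein, ranked by infection, and a nuclear count of cells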
- Direction: infection score: higher = more virus-infected cells; cell count: higher = more cells in the well
- Call rule: 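Very low infection ranking in both replicate wells (chance probability at most 0.065), then a retest showing infection dropped 1.5-fold or more at p below 0.05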
- Meaning of the calls: active = confirmed: knock-down lowers infection; inactive = not picked or not confirmed

| predicted target | dsRNA | infection score, replicate 1 | infection score, replicate 2 | cell count, replicate 1 | cell count, replicate 2 |
| --- | --- | --- | --- | --- | --- |
| CG14852 | DRSC14976 | 4.15 | 7.56 | 6029 | 6458 |
| CG14852 | DRSC23844 | 3.09 | 2.31 | 5210 | 5589 |
| CG42812 + CG42811 | DRSC15367 | 4.26 | 0.63 | 6146 | 6383 |
| CG42812 + CG42811 | DRSC15368 | 2.44 | 12.6 | 6555 | 6555 |
| CG12863 | DRSC06203 | 5.11 | 10.4 | 6010 | 6512 |
| Nepl3 (Neprilysin-like 3) | DRSC02681 | 11.8 | 29.1 | 5573 | 4937 |
| Or13a (Odorant receptor 13a) | DRSC20265 | 11.8 | 1.83 | 5107 | 6540 |
| CG10750 | DRSC02105 | 9.42 | 7.95 | 6455 | 6327 |
| CG10750 | DRSC29624 | 15.1 | 9.69 | 5976 | 2187 |
| PCNA (Proliferating cell nuclear antigen) | DRSC07653 | 38.4 | 35.8 | 2102 | 1962 |
| CG30350 | DRSC07690 | 14.2 | 10.2 | 5188 | 5223 |
| Karybeta3 (Karyopherin beta 3) | DRSC12355 | 19.6 | 26.3 | 1909 | 4262 |
| spd-2 (spindle defective 2) | DRSC09682 | 2.9 | 8.7 | 6893 | 6735 |
| spd-2 (spindle defective 2) | DRSC26762 | 2.13 | 2.87 | 6278 | 6617 |
| Zasp67 (Z band alternatively spliced PDZ-motif protein 67) | DRSC10169 | 1.67 | 1.49 | 5985 | 5567 |
| Zasp67 (Z band alternatively spliced PDZ-motif protein 67) | DRSC24457 | 5.25 | 3.33 | 6396 | 6818 |
| NimB4 (Nimrod B4) | DRSC01884 | 15.7 | 8.53 | 5973 | 5801 |
| NimB4 (Nimrod B4) | DRSC24265 | 5.38 | 2.31 | 6336 | 6093 |

Look-ups from above:
CG42812 + CG42811 [DRSC15368], infection score, replicate 1 → 2.44
For “infection score, replicate 1”, Or13a (Odorant receptor 13a) [DRSC20265] shows 11.8
Value of CG10750 [DRSC29624] under “infection score, replicate 1”: 15.1
Zasp67 (Z band alternatively spliced PDZ-motif protein 67) [DRSC24457], cell count, replicate 2 = 6818
Under “infection score, replicate 1”, CG14852 [DRSC14976] is entered as 4.15
For “infection score, replicate 2”, NimB4 (Nimrod B4) [DRSC24265] reads 2.31

Further results:
| predicted target | dsRNA | infection score, replicate 1 | infection score, replicate 2 | cell count, replicate 1 | cell count, replicate 2 |
| --- | --- | --- | --- | --- | --- |
| NimC3 (Nimrod C3) | DRSC03556 | 13.8 | 2.07 | 6471 | 917 |
| NimC3 (Nimrod C3) | DRSC22528 | 3.63 | 2.1 | 6620 | 6801 |
| NimC3 (Nimrod C3) | DRSC28582 | – | – | 310 | 302 |
| Inx2 (Innexin 2) | DRSC18783 | 16.4 | 3.6 | 574 | 6867 |
| Inx2 (Innexin 2) | DRSC24455 | 1.5 | 3.38 | 6847 | 6780 |
| CG15212 | DRSC10212 | 1.23 | 2.19 | 6098 | 5812 |
| CG6296 | DRSC16013 | 2.3 | 13.5 | 6726 | 6936 |
| Pli (Pellino) | DRSC16792 | 3.28 | 2.91 | 5796 | 6502 |
| CG15517 | DRSC15056 | 11 | 1.93 | 4863 | 6383 |
| Rpt3R (Regulatory particle triple-A ATPase 3-related) | DRSC16501 | 8.98 | 10.6 | 5792 | 5716 |
| Rpt3R (Regulatory particle triple-A ATPase 3-related) | DRSC25067 | 3 | 4.09 | 7265 | 5897 |
| Dtd (D-aminoacyl-tRNA deacylase) | DRSC15362 | 12 | 19.6 | 6678 | 6997 |
| CG13557 | DRSC04195 | 17.6 | 18.1 | 5055 | 5233 |
| C1GalTA (Core 1 Galactosyltransferase A) | DRSC03246 | 18.8 | 27.4 | 1657 | 5800 |
| CG13738 | DRSC10065 | 1.69 | 10.3 | 5734 | 5838 |
| CG13738 | DRSC23534 | 8.01 | 2.86 | 5603 | 5487 |
| CG30274 | DRSC04171 | 8.45 | 15.8 | 3113 | 2297 |
| CG30274 | DRSC29207 | – | 24.1 | 385 | 4772 |
| Mid1 | DRSC04231 | 3.82 | 25.3 | 6755 | 4676 |
| Mid1 | DRSC04308 | 17.9 | 11.2 | 5101 | 6257 |
| Mid1 | DRSC22773 | 0.71 | 7.37 | 5739 | 6184 |
| Mid1 | DRSC22803 | 1.26 | 19.6 | 5853 | 4846 |
| Mid1 | DRSC25509 | 4.87 | 9.48 | 6667 | 6559 |
| Mid1 | DRSC28634 | 21 | 7.43 | 3579 | 2032 |
